Strings that start with PEPTIDE1 are HELM notation: dots part the residues, brackets hold end groups and non-standard residues. One purity is given for all peptides; the source may state it once.
Test: general procedure: Boc solid-phase peptide synthesis; Boc-Phe-pMBHA-Resin; N,N'-dicyclohexylcarbodiimide
Conditions: whole synthesis, reversed phase HPLC, acetate salt

Substance: PEPTIDE1{R.S.S.C.F.G.G.R.I.D.R.I.G.A.Q.S.G.L.G.C.N.S.F.[am]}$PEPTIDE1,PEPTIDE1,4:R3-20:R3$$$V2.0
- final HPLC purity: minimum 97% purity

— patent publication US5212286A (Scios Nova Inc., priority 1986, dated 1993)
